One substance from article PMC3040979 can be followed below.

The series relates to CCCCCCCC(=O)O. In words: purified protein. To be noted: pH 7.5; 30.0 °C.

One may read the Km as the substrate concentration at which the rate is half of its maximum. Take “LpFAAL (Legionella pneumophila subsp. pneumophila str. Philadelphia 1)”: the Km came out at 811 ± 111 µM.
